Compound potency records, mixed from different reports. Data source: NIAID ChemDB in PubChem.

Shared fields: tests in culture; species: Candida albicans; read by: broth dilution; read-out: MIC

Rows are shuffled and stem from different studies.

| SMILES | strain or isolate | setting | value |
|---|---|---|---|
| COc1cncc(-c2nc(C)[n+](-c3ccccc3)[nH]2)n1 | - | - | >256 µg/mL |
| Cc1cc(Cl)[nH]c2ccc3c(=O)c(C(=O)NN4C(=O)C(Cl)C4c4ccccc4)cnc3c12 | - | - | 500 µg/mL |
| Cc1nc2c(s1)C(=O)C(Nc1ccc(Cl)cc1)=C(Cl)C2=O | KCCM 50235 | - | 50 µg/mL |
| Cc1ccc(C2C(Cl)C(=O)N2NC(=O)c2cnc3c(ccc4[nH]c(Cl)cc(C)c43)c2=O)cc1 | - | - | 200 µg/mL |
| Fc1ccc(Nc2nnc(-c3cn4ccccc4n3)o2)cc1 | ATCC 10231 | - | 32 µg/mL |
| N/C(=N\N=C(/N)c1cnccn1)c1cnccn1 | - | - | >256 µg/mL |
| CC(=O)N1CCN(c2ccc(OC[C@H]3CO[C@](Cn4ccnc4)(c4ccc(Cl)cc4Cl)O3)cc2)CC1 | 10 isolates | pH 7 | 0.03 µg/mL |
| CCN1C(CC(=O)Nc2ccc(C(C)C)cc2)C(=O)OC(C)(C)C1(C)C | SC5314 | - | >25 µg/mL |
| O=C(NNC(=S)Nc1ccc(Br)cc1)c1cn2ccccc2n1 | ATCC 10231 | - | 64 µg/mL |
| Cc1cc(Cl)[nH]c2ccc3c(=O)c(C(=O)NN4C(=O)C(Cl)C4c4cc([N+](=O)[O-])ccc4O)cnc3c12 | - | - | 250 µg/mL |
| Nc1[nH]c(=O)ncc1F | - | - | 3.2 µg/mL |
| CCSc1c[n+](C)c2ccccc2c1Nc1ccccc1 | ATCC 10231 | - | 128 µg/mL |
| COc1cncc(-c2nc(C)[n+](C)[nH]2)n1 | - | - | >256 µg/mL |
| CC(=O)Sc1c[n+](C)c2ccccc2c1Nc1ccc(Cl)cc1 | ATCC 10231 | - | 256 µg/mL |
| Cc1cc(Cl)[nH]c2ccc3c(=O)c(C(=O)NN=Cc4cccc([N+](=O)[O-])c4O)cnc3c12 | - | - | 200 µg/mL |
| CCCNC(=S)NNC(=O)c1cn2ccccc2n1 | ATCC 10231 | - | 32 µg/mL |
| Oc1ccc2cc1Oc1ccc(cc1)CCc1ccc(O)c(O)c1Oc1cccc(c1)CC2 | CA10 | - | 256 µg/mL |
| COc1cncc(-c2nc[n+](-c3ccccc3)[nH]2)n1 | - | - | >256 µg/mL |
| CC(C)c1ccc(NC(=O)CC2NCC(C)(C)OC2=O)cc1 | SC5314 | - | >25 µg/mL |
| CC(C)CNc1c(SC(=O)c2ccccc2)c[n+](C)c2ccccc12 | ATCC 10231 | - | 512 µg/mL |
| Oc1cc2ccc1Oc1cccc(c1)CCc1ccc(O)c(c1)Oc1ccc(cc1)CC2 | CA 02 | - | >512 µg/mL |
| CC(C)c1ccc(NC(=O)CC2C(=O)OC(C)(C)CN2CCF)cc1 | SC5314 | - | >25 µg/mL |
| C=C[C@@]1(C)CC[C@@]2(O)C3=C1C=C(C#N)C(C)(C)c1[nH]c4cccc(c4c13)C2(C)C | - | - | 32.9 µM |
| CC(C)c1ccc(NC(=O)CC2C(=O)OC(C)(C)CN2Cc2ccccc2)cc1 | SC5314 | - | >25 µg/mL |
| COc1ccc2cc1Oc1ccc(cc1)CCc1cc(O)ccc1-c1ccc(cc1O)CC2 | CA 02 | - | >512 µg/mL |
| Cc1nc2c(s1)C(=O)C(Nc1ccc(F)cc1)=C(Cl)C2=O | KCCM 50235 | - | 12.5 µg/mL |
| CCN1C(=O)CS/C1=N/NC(=O)c1cn2ccccc2n1 | ATCC 10231 | - | 64 µg/mL |
| C[n+]1cc(SC(=O)c2ccccc2)c(Nc2ccc(F)cc2)c2ccccc21 | ATCC 10231 | - | 256 µg/mL |
| Cc1nc2c(s1)C(=O)C(Nc1cccc(F)c1)=C(Cl)C2=O | KCCM 50235 | - | 12.5 µg/mL |
| Cn1nc(-c2cnccn2)n(N2CCOCC2)c1=S | - | - | >256 µg/mL |
| CCN1CC(CC)(CC)OC(=O)C1CC(=O)Nc1ccc(C(C)C)cc1 | SC5314 | - | >25 µg/mL |
| CNC(=S)NNC(=O)c1cn2ccccc2n1 | ATCC 10231 | - | 64 µg/mL |
| CCSc1c[n+](C)c2ccccc2c1Nc1ccc(Cl)cc1 | ATCC 10231 | - | 256 µg/mL |
| Nc1[nH]c(=O)ncc1F | 15 isolates | pH 4 | 0.125 µg/mL |
| O=C(NNC(=S)Nc1ccc(F)cc1)c1cn2ccccc2n1 | ATCC 10231 | - | 64 µg/mL |
| C[n+]1cc(SC(=O)c2ccccc2)c(Nc2ccccc2)c2ccccc21 | ATCC 10231 | - | 512 µg/mL |
| COc1cncc(C(N)=NN(C)S(C)(=O)=O)n1 | - | - | >256 µg/mL |
| Cc1cc(Cl)[nH]c2ccc3c(=O)c(C(=O)NN=Cc4ccccc4Cl)cnc3c12 | - | - | 250 µg/mL |
| CCCC[C@@H](C)/C=C(C)/C=C(\C)C(=O)N/C(=C/[C@@](C)(O)/C=C/C=C/C=C/C(=O)NC1=C(O)CCC1=O)C(=O)[C@@H]1CO1 | 1 | - | 25 µM |
| Cc1ccc(S(=O)(=O)NN=C(N)c2cnccn2)cc1 | - | - | >256 µg/mL |
| CC(C)c1ccc(NC(=O)CC2C(=O)OC(C)(C)CN2C(C)C)cc1 | SC5314 | - | >25 µg/mL |
| CN1C(=O)CS/C1=N/NC(=O)c1cn2ccccc2n1 | ATCC 10231 | - | 64 µg/mL |
| C=C[C@]1(C)C2=C3c4c([nH]c5cccc(c45)C(C)(C)[C@H]3C[C@H]1Cl)C(C)(C)C(C#N)=C2 | - | - | >100 µM |
| CC(C)(O)c1cn(-c2ccc(Cl)cc2)nn1 | URM 3719 | - | 256 µg/mL |
| C[C@H]1[C@H](O)[C@@H](C)/C=C/C=C/C=C/C=C/C=C/C=C/C=C/[C@H](O[C@@H]2O[C@H](C)[C@@H](O)[C@H](N)[C@@H]2O)C[C@@H]2O[C@](O)(C[C@@H](O)C[C@@H](O)CC[C@H](O)[C@@H](O)C[C@@H](O)CC(=O)O[C@H]1C)C[C@H](O)[C@H]2C(=O)O | ATCC 10231 | - | 0.5 µM |
| Cc1cc(Cl)[nH]c2ccc3c(=O)c(C(=O)NN4C(=O)C(Cl)C4c4ccccc4O)cnc3c12 | - | - | 500 µg/mL |
| CCCN1CC(C)(C)OC(=O)C1CC(=O)Nc1ccc(C(C)C)cc1 | SC5314 | - | >25 µg/mL |
| Cc1nc2c(s1)C(=O)C(Nc1ccc(Br)cc1)=C(Cl)C2=O | KCCM 50235 | - | 3.2 µg/mL |
| COc1cncc(/C(N)=N/N=C(\N)c2cnccn2)n1 | - | - | >256 µg/mL |
| Cc1nc2c(s1)C(=O)C(Nc1ccc(C#N)cc1)=C(Cl)C2=O | KCCM 50235 | - | 3.2 µg/mL |
| C[C@H]1[C@H](O)[C@@H](C)/C=C/C=C/C=C/C=C/C=C/C=C/C=C/[C@H](O[C@@H]2O[C@H](C)[C@@H](O)[C@H](N)[C@@H]2O)C[C@@H]2O[C@](O)(C[C@@H](O)C[C@@H](O)CC[C@H](O)[C@@H](O)C[C@@H](O)CC(=O)O[C@H]1C)C[C@H](O)[C@H]2C(=O)O | ATCC 10231 | - | 0.5 µg/mL |
| CCc1c(OC)ccc2sc(C)nc12 | KCCM 50235 | - | 100 µg/mL |
| CCC(C)CC(C)CCCCCCCCC(=O)N[C@H]1C[C@@H](O)[C@H](NCCN)NC(=O)[C@@H]2[C@@H](O)CCN2C(=O)[C@H]([C@H](O)CCN)NC(=O)[C@H]([C@H](O)[C@@H](O)c2ccc(O)cc2)NC(=O)[C@@H]2C[C@@H](O)CN2C(=O)[C@H]([C@@H](C)O)NC1=O | 10 isolates | pH 6 | 0.03 µg/mL |

Again, the opening 6 rows:

| SMILES | strain or isolate | setting | value |
|---|---|---|---|
| COc1cncc(-c2nc(C)[n+](-c3ccccc3)[nH]2)n1 | - | - | >256 µg/mL |
| Cc1cc(Cl)[nH]c2ccc3c(=O)c(C(=O)NN4C(=O)C(Cl)C4c4ccccc4)cnc3c12 | - | - | 500 µg/mL |
| Cc1nc2c(s1)C(=O)C(Nc1ccc(Cl)cc1)=C(Cl)C2=O | KCCM 50235 | - | 50 µg/mL |
| Cc1ccc(C2C(Cl)C(=O)N2NC(=O)c2cnc3c(ccc4[nH]c(Cl)cc(C)c43)c2=O)cc1 | - | - | 200 µg/mL |
| Fc1ccc(Nc2nnc(-c3cn4ccccc4n3)o2)cc1 | ATCC 10231 | - | 32 µg/mL |
| N/C(=N\N=C(/N)c1cnccn1)c1cnccn1 | - | - | >256 µg/mL |

Blank or dashed fields: not listed here.